The text below walks through data of US20250320258.

For at least one entry, the source does not settle the construct or the ends of the probe. At least one result comes from cells or an extract, where the contact may be indirect.

This data set addresses NSP12 (RNA-dependent RNA polymerase) (SARS-CoV-2) (UniProt P0DTD1). Nature of the data set: binding assay. The settings on record: eCLIP motif, weakly enriched; protein in cells; protein details: 2xStrep or 3xFLAG, expressed in BEAS-2B.

In the case of GUCCCG [GUCCCG motif], the binding result was “binds”.
